Measured values from several laboratories, pooled; numbers as filed in NIAID ChemDB.

Shared fields: growth or infection tests; organism: HIV-1; method: MTT; measure: EC50

ECn: concentration that inhibits the pathogen or its effect by n%.

{"SMILES": "Cc1cc(C#N)cc(C)c1Oc1nc(N/N=C/C2CCN(Cc3ccc(S(=O)(=O)NC4CCOCC4)cc3)CC2)nc2ccsc12", "cells": "MT-4", "strain or isolate": "IIIB", "result": ">4.42 µM"}
{"SMILES": "COC(=O)[C@@H]1CCCN1P(=O)(OC[C@H]1O[C@@H](n2cc(C)c(=O)[nH]c2=O)CC1N=[N+]=[N-])Oc1ccccc1", "cells": "MT-4", "strain or isolate": "IIIB", "result": "0.992 µM"}
{"SMILES": "COc1cc2oc(-c3ccc(O)cc3O)cc2c(OC)c1CC=C(C)C", "cells": "MT-4", "strain or isolate": "IIIB", "result": ">50 µg/mL"}
{"SMILES": "C#Cc1ccc(Nc2nccc(Oc3c(C)cc(-c4cn(Cc5ccc(C(N)=O)cc5)nn4)cc3C)n2)cc1", "cells": "MT-4", "strain or isolate": "IIIB", "result": "0.049 µM"}
{"SMILES": "O=c1[nH]cnc2c1ncn2[C@H]1CC[C@@H](CO)O1", "cells": "MT-4", "strain or isolate": "ROD", "result": "4.953 µM"}
{"SMILES": "COc1ccc(S(=O)(=O)N(CC(C)C)C[C@@H](O)[C@H](Cc2ccccc2)NC(=O)O[C@H]2CO[C@@H]3O[C@H]4OCC[C@H]4[C@@H]32)cc1", "cells": "MT-2", "strain or isolate": "LAI", "result": "0.33 µM"}
{"SMILES": "C#Cc1ccc(Nc2nccc(Oc3c(C)cc(-c4cn(CC(=O)Nc5ccc(F)cc5)nn4)cc3C)n2)cc1", "mutations": "L100I", "cells": "MT-4", "strain or isolate": "IIIB", "result": ">1.41 µM"}
{"SMILES": "COC(=O)N[C@H](C(=O)N[C@@H](Cc1ccccc1)[C@@H](O)CN(Cc1ccc(-c2ccccn2)cc1)NC(=O)[C@@H](NC(=O)OC)C(C)(C)C)C(C)(C)C", "cells": "MT-2", "strain or isolate": "LAI", "result": "0.0044 µM"}
{"SMILES": "C#Cc1ccc(Nc2nccc(Oc3c(C)cc(-c4cn(CCC(=O)OC)nn4)cc3C)n2)cc1", "mutations": "E138K", "cells": "MT-4", "strain or isolate": "IIIB", "result": "1.03 µM"}
{"SMILES": "COC(=O)c1ccc(NC(=O)CSc2nc3ncccc3n2-c2ccc(C3CC3)c3ccccc23)c(Br)c1", "cells": "MT-4", "strain or isolate": "IIIB", "result": "0.37 µM"}
{"SMILES": "c1cc(CCNCCN2CCCC2)ccc1CCNCCN1CCCC1", "cells": "MT-4", "strain or isolate": "NL4-3", "result": "0.51 µg/mL"}
{"SMILES": "Nc1ccc(-c2nc3cc(Cl)ccc3c(=O)[nH]2)cc1", "cells": "MT-4", "result": ">170 µM"}
{"SMILES": "CC(C)=CCc1cc(C2CC(=O)c3ccc(O)c(CC=C(C)C)c3O2)ccc1O", "cells": "MT-4", "strain or isolate": "IIIB", "result": ">100 µg/mL"}
{"SMILES": "Cc1cn([C@H]2C[C@H](N=[N+]=[N-])[C@@H](CO)O2)c(=O)[nH]c1=O", "cells": "MT-4", "strain or isolate": "RES056", "result": "0.02 µM"}
{"SMILES": "Cc1cc(C#N)cc(C)c1Oc1nc(N/N=C/C2CCN(Cc3ccc(S(=O)(=O)N4CCOCC4)cc3)CC2)nc2ccsc12", "cells": "MT-4", "strain or isolate": "IIIB", "result": ">14.5 µM"}
{"SMILES": "N#Cc1ccc(Nc2nc(Oc3c(Cl)cccc3Cl)ncc2[N+](=O)[O-])cc1", "cells": "MT-4", "strain or isolate": "IIIB", "result": "3.2 µM"}
{"SMILES": "NC(=O)c1ccc(NC(=O)CSc2nc3ncccc3n2-c2ccc(C3CC3)c3ccccc23)c(Br)c1", "cells": "MT-4", "strain or isolate": "RES056", "result": ">0.66 µM"}
{"SMILES": "CN1CCC(c2c(O)cc(O)c3c(=O)cc(-c4ccccc4Cl)oc23)[C@H](O)C1", "cells": "MT-4", "result": ">0.27 µM"}
{"SMILES": "COc1cc(O)c(-c2coc3cc(O)ccc3c2=O)c(OC)c1CC=C(C)C", "cells": "MT-4", "strain or isolate": "IIIB", "result": ">100 µg/mL"}
{"SMILES": "NC(=O)c1ccc(NC(=O)CSc2nc3ncccc3n2-c2ccc(C3CC3)c3ccccc23)c(Cl)c1", "cells": "MT-4", "strain or isolate": "RES056", "result": ">0.68 µM"}
{"SMILES": "CC(C)Nc1cccnc1N1CCN(C(=O)c2cc3cc(N=CN(C)C)ccc3[nH]2)CC1", "cells": "PBMC", "strain or isolate": "Seropositive clinical isolate D", "result": "<1 µM"}
{"SMILES": "COc1cc2c(c(OC)c1CC=C(C)C)C[C@H](c1ccc(O)c(CC=C(C)C)c1O)CO2", "cells": "MT-4", "strain or isolate": "IIIB", "result": "14 µg/mL"}
{"SMILES": "c1cc(CN2CCCNCCNCCCNCC2)ccc1CN1CCCNCCNCCCNCC1", "cells": "PBMC", "strain or isolate": "BaL", "result": ">1 µM"}
{"SMILES": "COc1ccc(S(=O)(=O)N(CC2CCCC2)C[C@@H](O)[C@H](Cc2ccccc2)NC(=O)O[C@H]2CCOC2)cc1", "cells": "MT-4", "strain or isolate": "HXB2", "result": "0.029 µM"}
{"SMILES": "N#Cc1ccc(NC(=O)CSc2nc3ncccc3n2-c2ccc(C3CC3)c3ccccc23)c(Br)c1", "cells": "MT-4", "strain or isolate": "RES056", "result": ">2.78 µM"}
{"SMILES": "Cc1cc(C#N)cc(C)c1Oc1nc(N/N=C/c2ccc(C#N)c(F)c2)nc2ccsc12", "mutations": "K103N/Y181C", "cells": "MT-4", "strain or isolate": "RES056", "result": ">56.5 µM"}
{"SMILES": "COc1cc2c(c(OC)c1OC)-c1c(cc(OC)c(OC)c1OC)C[C@H](C)[C@H](C)C2", "cells": "Jurkat cells", "result": ">20 µM"}
{"SMILES": "Nc1ncnc2c1ncn2[C@@H]1OC[C@H](CCP(=O)(O)O)[C@H]1F", "cells": "MT-4", "strain or isolate": "IIIB", "result": "8.8 µM"}
{"SMILES": "CC(C)=CCc1c(O)cc(-c2cc3ccc(O)cc3o2)cc1O", "cells": "MT-4", "strain or isolate": "IIIB", "result": "1.6 µg/mL"}
{"SMILES": "CONC(=O)c1ccc(NC(=O)CSc2nc3ncccc3n2-c2ccc(C3CC3)c3ccccc23)c(Cl)c1", "cells": "MT-4", "strain or isolate": "RES056", "result": ">1.05 µM"}
{"SMILES": "Cc1cn([C@H]2C[C@H](N=[N+]=[N-])[C@@H](CO)O2)c(=O)[nH]c1=O", "cells": "MT-4", "strain or isolate": "RES056", "result": "0.015 µM"}
{"SMILES": "CC(Sc1nc2ncccc2n1-c1ccc(C2CC2)c2ccccc12)C(=O)Nc1ccc(S(N)(=O)=O)cc1Br", "cells": "MT-4", "strain or isolate": "IIIB", "result": "0.11 µM"}
{"SMILES": "O=c1[nH]cnc2c1ncn2[C@H]1CC[C@@H](CO)O1", "cells": "MT-4", "strain or isolate": "IIIB", "result": "18 µM"}
{"SMILES": "Cc1cc(C#N)cc(C)c1Oc1ncc(NC(=O)C(F)(F)F)c(Nc2ccc(C#N)cc2)n1", "cells": "MT-4", "strain or isolate": "IIIB", "result": "0.037 µM"}
{"SMILES": "CC(Sc1nc2ncccc2n1-c1ccc(C2CC2)c2ccccc12)C(=O)Nc1ccc(S(N)(=O)=O)cc1Cl", "cells": "MT-4", "strain or isolate": "RES056", "result": ">3.2 µM"}
{"SMILES": "O=c1[nH]c(-c2ccc3[nH]ncc3c2)nc2ccccc12", "cells": "MT-4", "result": ">42.6 µM"}
{"SMILES": "CC1(C)OC2=C(CC3C=C(c4cc(O)cc(O)c4)OC3=C2)CC1O", "cells": "MT-4", "strain or isolate": "IIIB", "result": ">20 µg/mL"}
{"SMILES": "Cc1cc(C#N)cc(C)c1Oc1nc(N/N=C/c2ccc(C#N)cc2)nc2ccsc12", "cells": "MT-4", "strain or isolate": "IIIB", "result": "0.0212 µM"}
{"SMILES": "Cc1cc(C=O)cc(C)c1Oc1ncc(NC(=O)C(F)(F)F)c(Nc2ccc(C#N)cc2)n1", "cells": "MT-4", "strain or isolate": "RES056", "result": "35 µM"}
{"SMILES": "CC(C)(C)NC(=O)[C@@H]1C[C@@H]2CCCC[C@@H]2CN1C[C@@H](O)[C@H](Cc1ccccc1)NC(=O)[C@H](CC(N)=O)NC(=O)c1ccc2ccccc2n1", "cells": "MT-2", "strain or isolate": "LAI", "result": "0.026 µM"}
{"SMILES": "Nc1nc2c(ncn2[C@@H]2OC[C@H](/C=C/P(=O)(O)O)[C@H]2F)c(=O)[nH]1", "cells": "MT-4", "strain or isolate": "IIIB", "result": "66.8 µM"}
{"SMILES": "CC(C)(C)NC(=O)[C@@H]1C[C@@H]2CCCC[C@@H]2CN1C[C@H](O)[C@H](Cc1ccccc1)NC(=O)[C@H](CC(N)=O)NC(=O)c1ccc2ccccc2n1", "cells": "MT-2", "strain or isolate": "LAI", "result": "0.028 µM"}
{"SMILES": "CC(Sc1nc2ncccc2n1-c1ccc(C2CC2)c2ccccc12)C(=O)Nc1ccc(C(N)=O)cc1Br", "cells": "MT-4", "strain or isolate": "IIIB", "result": "0.2 µM"}
{"SMILES": "Cc1ccnc2c1NC(=O)c1cccnc1N2C1CC1", "cells": "MT-4", "strain or isolate": "IIIB", "result": "0.281 µM"}
{"SMILES": "Cc1cn([C@H]2C[C@H](N=[N+]=[N-])[C@@H](CO)O2)c(=O)[nH]c1=O", "cells": "MT-4", "strain or isolate": "IIIB", "result": "0.0071 µM"}
{"SMILES": "Cc1cn([C@H]2C[C@H](N=[N+]=[N-])[C@@H](CO)O2)c(=O)[nH]c1=O", "cells": "MT-4", "strain or isolate": "IIIB", "result": "0.007 µM"}
{"SMILES": "COC(=O)N[C@H](C(=O)N[C@@H](Cc1ccccc1)[C@@H](O)CN(Cc1ccc(-c2ccccn2)cc1)NC(=O)[C@@H](NC(=O)OC)C(C)(C)C)C(C)(C)C", "cells": "MT-2", "strain or isolate": "LAI", "result": "0.0048 µM"}
{"SMILES": "Cc1cc(C#N)cc(C)c1Oc1nc(N/N=C/C2CCN(Cc3ccc(S(C)(=O)=O)cc3)CC2)nc2ccsc12", "cells": "MT-4", "strain or isolate": "IIIB", "result": ">4.62 µM"}
{"SMILES": "COc1ccc(C2CC(=O)c3c(O)cc(O)cc3O2)c(CC=C(C)C)c1OC", "cells": "MT-4", "strain or isolate": "IIIB", "result": "74 µg/mL"}

A second listing of 5 rows from above:

SMILES	mutations	cells	strain or isolate	result
Cc1cn([C@H]2C[C@H](N=[N+]=[N-])[C@@H](CO)O2)c(=O)[nH]c1=O	-	MT-4	RES056	0.015 µM
COc1ccc(C2CC(=O)c3c(O)cc(O)cc3O2)c(CC=C(C)C)c1OC	-	MT-4	IIIB	74 µg/mL
COc1cc(O)c(-c2coc3cc(O)ccc3c2=O)c(OC)c1CC=C(C)C	-	MT-4	IIIB	>100 µg/mL
Cc1cn([C@H]2C[C@H](N=[N+]=[N-])[C@@H](CO)O2)c(=O)[nH]c1=O	-	MT-4	IIIB	0.0071 µM
NC(=O)c1ccc(NC(=O)CSc2nc3ncccc3n2-c2ccc(C3CC3)c3ccccc23)c(Br)c1	-	MT-4	RES056	>0.66 µM

Rows are shuffled and stem from different studies. An empty or dashed field is not shown.